Pooled drug test results. Numbers come from NIAID ChemDB, via PubChem.

Common to all: whole-cell or culture tests

An empty or dashed field is not shown.

| SMILES | endpoint | species | strain or isolate | read by | dose | setting | result |
|---|---|---|---|---|---|---|---|
| Cc1nc2ccc(Br)cn2c1C(=O)NCc1ccc(N(C)C)cc1 | MIC50 | Mycobacterium ulcerans |  | fluorescence |  |  | 0.01–0.1 µg/mL |
| CCCCCCCN(CCCCCCC)C(=O)NC(CCC(=O)O)(CCC(=O)O)CCC(=O)O | MIC | Mycobacterium abscessus | AAy-P-1 |  |  |  | 36 µg/mL |
| CCc1nc2cc(F)ccn2c1C(=O)NCc1ccc(-n2cc3c(n2)CN(c2ccc(OC(F)(F)F)cc2)C3)c(F)c1.Cl | inhibition | Mycobacterium avium |  | fluorescence | 0.2 µM |  | 85% |
| CCCCCCCCCCCCCCCCCCCCNC(=O)NC(CCC(=O)O)(CCC(=O)O)CCC(=O)O | MIC | Mycobacterium marinum | ATCC 927 |  |  |  | 36 µg/mL |
| CCCCC(=O)O[C@H]1[C@H](C)OC(O[C@H]2[C@H](C)[C@@H](O[C@@H]3O[C@H](C)C[C@H](N(C)C)[C@H]3O)C(C)(O)C[C@@H](C)/C(=N\OCCCOc3ccccc3)[C@H](C)[C@@H](O)[C@](C)(O)[C@@H](CC)OC(=O)[C@@H]2C)C[C@@]1(C)OC | MIC | Mycobacterium avium complex | 20092 (clarithromycin-resistant) |  |  |  | 1.56 µg/mL |
| CCCCCCCCC(CCCCCCCC)OC(=O)NC(CCC(=O)O)(CCC(=O)O)CCC(=O)O | MIC | Mycobacterium chelonae | EO-P-1 |  |  |  | 71 µg/mL |
| Cc1ccc2nc(C)c(C(=O)NCc3ccc(N4CCOCC4)cc3)n2c1 | MIC50 | Mycobacterium ulcerans |  | fluorescence |  |  | 1–10 µg/mL |
| O=c1oc2ccc(F)cc2c(=S)n1-c1ccc(Br)cc1 | MIC | Mycobacterium kansasii | 6509/96 |  |  | 21 d | 4 µM |
| CC[C@H]1OC(=O)[C@H](C)[C@@H](O[C@H]2C[C@@](C)(OC)[C@@H](OC(C)=O)[C@H](C)O2)[C@H](C)[C@@H](O[C@@H]2O[C@H](C)C[C@H](N(C)C)[C@H]2OC(=O)NNCc2ccccc2[N+](=O)[O-])C(C)(O)C[C@@H](C)/C(=N\OCCCC2CCCCC2)[C@H](C)[C@@H](O)[C@]1(C)O | MIC | Mycobacterium avium complex | 20096 (clarithromycin-resistant) |  |  |  | 0.39 µg/mL |
| Cc1cc2nc(CCNC(=O)c3c(C)nc4ccc(Cl)cn34)[nH]c2cc1C | MIC50 | Mycobacterium ulcerans |  | fluorescence |  |  | >10 µg/mL |
| CC(C)CCC[C@@H](C)[C@H]1CC[C@H]2[C@@H]3CC[C@H]4C[C@H](NC(=O)NC(CCC(=O)O)(CCC(=O)O)CCC(=O)O)CC[C@]4(C)[C@H]3CC[C@]12C | MIC | Mycobacterium marinum | ATCC 927 |  |  |  | 69 µg/mL |
| CCc1nc2cc(F)ccn2c1C(=O)NCc1cc(F)c(N2CCN(c3ccc(OC(F)(F)F)cc3)[C@@H](C)C2)cc1F.Cl | inhibition | Mycobacterium avium |  | fluorescence | 0.0072 µM |  | 85% |
| O=C(NCCc1ccc(O)cc1)c1c(Cl)nc2ccccn12 | MIC50 | Mycobacterium ulcerans |  | fluorescence |  |  | >10 µg/mL |
| Cc1ccn2c(C(=O)NCc3ccc(N4C[C@H](C)N(c5ccc(OC(F)(F)F)cc5)C[C@H]4C)c(F)c3)c(C)nc2c1 | inhibition | Mycobacterium avium |  | fluorescence | 0.18 µM |  | 85% |
| Fc1ccc2oc(=S)n(-c3ccc(Cl)cc3)c(=S)c2c1 | MIC | Mycobacterium kansasii | My 235/80 |  |  | 14 d | 2 µM |
| Nc1ccc(S(=O)(=O)c2ccc(N)cc2)cc1 | MIC | Mycobacterium avium complex | DW23 |  |  |  | 32 µg/mL |
| CO[C@H]1/C=C/O[C@@]2(C)Oc3c(C)c(O)c4c(O)c(c5c(c4c3C2=O)NC2(CCN(CC(C)C)CC2)N=5)=NC(=O)/C(C)=C\C=C\[C@H](C)[C@H](O)[C@@H](C)[C@@H](O)[C@@H](C)[C@H](OC(C)=O)[C@@H]1C | MIC | Mycobacterium avium intracellulare | SHE |  |  |  | 0.25 µg/mL |
| Cc1ccc2oc(=O)n(-c3ccc(C(F)(F)F)cc3)c(=S)c2c1 | MIC | Mycobacterium kansasii | My 235/80 |  |  | 14 d | 16 µM |
| CCc1nc2ccc(Cl)cn2c1C(=O)NCc1ccc(C2=CCC(c3ccc(OC(F)(F)F)cc3)CC2)c(F)c1.Cl | inhibition | Mycobacterium avium |  | fluorescence | 0.0068 µM |  | 85% |
| CC(C)N=C(N)/N=C(\N)NOCCCOc1cc(Cl)c(Cl)cc1Cl | MIC | Mycobacterium avium complex | 1439 |  |  |  | 32 µg/mL |
| CCCCO/N=C1\[C@H](C)CC(C)(O)[C@H](O[C@@H]2O[C@H](C)C[C@H](N(C)C)[C@H]2O)[C@@H](C)[C@H](OC2C[C@@](C)(OC)[C@@H](O)[C@H](C)O2)[C@@H](C)C(=O)O[C@H](CC)[C@@](C)(O)[C@H](O)[C@H]1C | MIC | Mycobacterium avium complex | 20096 (clarithromycin-resistant) |  |  |  | >50 µg/mL |
| Fc1cccc(-n2c(=S)oc3ccc(Cl)cc3c2=S)c1 | MIC | Mycobacterium kansasii | 6509/96 |  |  | 21 d | 8 µM |
| CC[C@H]1OC(=O)[C@H](C)[C@@H](O[C@H]2C[C@@](C)(OC)[C@@H](OC(C)=O)[C@H](C)O2)[C@H](C)[C@@H](O[C@@H]2O[C@H](C)C[C@H](N(C)C)[C@H]2O)C(C)(O)C[C@@H](C)/C(=N\OCCCc2ccccc2)[C@H](C)[C@@H](O)[C@]1(C)O | MIC | Mycobacterium avium complex | 20092 (clarithromycin-resistant) |  |  |  | 6.25 µg/mL |
| CCCCCCCCCCCCC(CCCCCCCCCCCC)OC(=O)NC(CCC(=O)O)(CCC(=O)O)CCC(=O)O | MIC | Mycobacterium marinum | ATCC 927 |  |  |  | 285 µg/mL |
| CC[C@H]1OC(=O)[C@H](C)[C@@H](O[C@H]2C[C@@](C)(OC)[C@@H](OC(C)=O)[C@H](C)O2)[C@H](C)[C@@H](O[C@@H]2O[C@H](C)C[C@H](N(C)C)[C@H]2OC(=O)NNCc2cccc([N+](=O)[O-])c2)C(C)(O)C[C@@H](C)/C(=N\OCCCC2CCCCC2)[C@H](C)[C@@H](O)[C@]1(C)O | MIC | Mycobacterium avium complex | 20092 (clarithromycin-resistant) |  |  |  | 0.78 µg/mL |
| CCCCCCCCCCN(CCCCCCCCCC)C(=O)NC(CCC(=O)O)(CCC(=O)O)CCC(=O)O | MIC | Mycobacterium chelonae | EO-P-1 |  |  |  | 54 µg/mL |
| CC[C@H]1OC(=O)[C@H](C)[C@@H](OC(=O)CC2CCCCC2)[C@H](C)[C@@H](O[C@@H]2O[C@H](C)C[C@H](N(C)C)[C@H]2O)C(C)(O)C[C@@H](C)/C(=N\OCCCOc2ccccc2)[C@H](C)[C@@H](O)[C@]1(C)O | MIC | Mycobacterium avium complex | 20039 (clarithromycin-susceptible) |  |  |  | 3.13 µg/mL |
| Cc1ccc2nc(C)c(C(=O)NCc3ccc(-c4ccc(Cl)cc4)cc3)n2c1 | MIC50 | Mycobacterium ulcerans |  | fluorescence |  |  | 0.001–0.01 µg/mL |
| Cc1ccn2c(C(=O)NCc3ccc(N4[C@@H]5CC[C@H]4CN(c4ccc(OC(F)(F)F)cc4)C5)c(F)c3)c(C)nc2c1 | inhibition | Mycobacterium avium |  | fluorescence | 0.2 µM |  | 85% |
| FC(F)(F)c1ccc(-n2c(=S)oc3ccc(Cl)cc3c2=S)cc1 | MIC | Mycobacterium kansasii | My 235/80 |  |  | 14 d | 16 µM |
| CCOc1ccc(N2CCN(c3ccc(CNC(=O)c4c(CC)nc5ccc(Cl)cn45)cc3F)C[C@@H]2C)cc1F.Cl | inhibition | Mycobacterium avium |  | fluorescence | 0.037 µM |  | 85% |
| Cc1ccc2oc(=S)n(-c3cccc(Cl)c3)c(=S)c2c1 | MIC | Mycobacterium kansasii | 6509/96 |  |  | 21 d | 4 µM |
| CCCCCCCC(CCCCCCC)NC(=O)NC(CCC(=O)O)(CCC(=O)O)CCC(=O)O | MIC | Mycobacterium abscessus | AAy-P-1 |  |  |  | 144 µg/mL |
| Cc1ccc2oc(=O)n(-c3ccccc3)c(=S)c2c1 | MIC | Mycobacterium kansasii | My 235/80 |  |  | 14 d | 2 µM |
| Cc1cn2c(C(=O)NCc3ccc(C4CC5(CCN(c6ccc(C(F)(F)F)cc6)CC5)C4)c(F)c3)c(C)nc2s1 | inhibition | Mycobacterium avium |  | fluorescence | 0.15 µM |  | 85% |
| COc1ccc2oc(=O)n(-c3ccccc3)c(=S)c2c1 | MIC | Mycobacterium kansasii | My 235/80 |  |  | 21 d | 32 µM |
| Cc1cc2nc(C)c(C(=O)NCc3ccc(N4CCN(c5ccc(OC(F)(F)F)cc5)[C@@H](C)C4)c(F)c3)n2cc1F | inhibition | Mycobacterium avium |  | fluorescence | 0.11 µM |  | 85% |
| Cc1ccc(-n2c(=S)oc3ccc(F)cc3c2=S)cc1 | MIC | Mycobacterium kansasii | 6509/96 |  |  | 21 d | 4 µM |
| CC[C@H]1OC(=O)[C@H](C)[C@@H](O[C@H]2C[C@@](C)(OC)[C@@H](OC(C)=O)[C@H](C)O2)[C@H](C)[C@@H](O[C@@H]2O[C@H](C)C[C@H](N(C)C)[C@H]2OC(=O)NN)C(C)(O)C[C@@H](C)/C(=N\OCCCC2CCCCC2)[C@H](C)[C@@H](O)[C@]1(C)O | MIC | Mycobacterium avium complex | 20092 (clarithromycin-resistant) |  |  |  | 6.25 µg/mL |

The last 4 rows once more:

SMILES	endpoint	species	strain or isolate	read by	dose	setting	result
COc1ccc2oc(=O)n(-c3ccccc3)c(=S)c2c1	MIC	Mycobacterium kansasii	My 235/80			21 d	32 µM
Cc1cc2nc(C)c(C(=O)NCc3ccc(N4CCN(c5ccc(OC(F)(F)F)cc5)[C@@H](C)C4)c(F)c3)n2cc1F	inhibition	Mycobacterium avium		fluorescence	0.11 µM		85%
Cc1ccc(-n2c(=S)oc3ccc(F)cc3c2=S)cc1	MIC	Mycobacterium kansasii	6509/96			21 d	4 µM
CC[C@H]1OC(=O)[C@H](C)[C@@H](O[C@H]2C[C@@](C)(OC)[C@@H](OC(C)=O)[C@H](C)O2)[C@H](C)[C@@H](O[C@@H]2O[C@H](C)C[C@H](N(C)C)[C@H]2OC(=O)NN)C(C)(O)C[C@@H](C)/C(=N\OCCCC2CCCCC2)[C@H](C)[C@@H](O)[C@]1(C)O	MIC	Mycobacterium avium complex	20092 (clarithromycin-resistant)				6.25 µg/mL

Rows are shuffled and stem from different studies. Inhibition is in % at the dose shown (toxicity tests: loss of growth or viability). MIC50, MIC90 and the like: level of inhibition, or share of isolates inhibited. Two numbers with a dash give a range or band.